The results in this text go back to article PMC8084484.

The target in this assay is canine ACE2 (ectodomain), histidine-tagged (dog). Kind of assay: BLI; anti-penta-His (HIS1K) biosensors, Octet RED96, 30°C, shaking 1,000 RPM; reference sample subtracted; 1:2 bivalent binding model with global fit.

“SARS-CoV-2 S1 (Sino Biological 40591-V02H) (from UniProt P0DTC2 14-685) (domain or fragment)” showed a Kd of 0.0195 µM.
